Laboratory results reported in publication PMC11022072, “A secreted bacterial protein protects bacteria from cationic antimicrobial peptides by entrapment in phase-separated droplets” (2024).

Target: bovine lactoferrin (Lf) (bovine) (UniProt P24627)
Assay: BLI; holo-Lf
Conditions: natural protein

“Moraxella bovis lactoferrin-binding protein B (LbpB), full-length (from UniProt H9KVH9 1-341)” was tested, and the Kd was 86.7 nM.
